# Data as given in PubChem BioAssay AID624099 (ICCB-Longwood, 2012).
# Test: 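Knock-downs relieving repression by E2 of an HPV18 LCR luciferase reporter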 (primary screen)
# Cell system: human C33A cervical carcinoma cells (HPV-negative) stably expressing BPV1 E2 and an HPV18 LCR luciferase reporter
# Reagents: siRNA pool against human genes, 40 nM
# Timing: 72 h
# Detection: 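HPV18 LCR reporter light per well, converted to plate-wise z-scores that exclude control wells, and averaged over triplicate plates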
# Direction: mean z-score and z-score: higher = stronger reporter signal, weaker E2 silencing
# Rule for the call: 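Hit if mean z-score reaches 2 and two or more of three replicate z-scores also reach 2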
# The whole screen tested about 21,000 reagents; this is an unselected part. Over the whole deposit, 497 (2.4%) are marked active. 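Higher z means weaker E2 silencing; only reporter increases were scored, and knock-downs that hurt cell survival may mask genuine repressor factors.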
gene knocked down,mean z-score,"z-score, replicate A","z-score, replicate B","z-score, replicate C",Call
ZNF718 (GeneID 255403),1.16,0.87,1,1.62,inactive
CNBD2 (GeneID 140894),-0.94,-1.01,-1.52,-0.28,inactive
WDR49 (GeneID 151790),0.38,0.65,0.18,0.31,inactive
ZNF295-AS1 (GeneID 150142),0.6,0.82,0.51,0.47,inactive
RPS26P40 (GeneID 338611),0.04,-0.12,0.22,0,inactive
BBC3 (GeneID 27113),-0.44,-0.44,-0.43,-0.44,inactive
EIF4EBP3 (GeneID 8637),-0.78,-0.73,-0.7,-0.9,inactive
FZD2 (GeneID 2535),2.3,1.78,2.55,2.58,active

The list goes on (3 carried over from the part before).
gene knocked down,mean z-score,"z-score, replicate A","z-score, replicate B","z-score, replicate C",Call
BBC3 (GeneID 27113),-0.44,-0.44,-0.43,-0.44,inactive
EIF4EBP3 (GeneID 8637),-0.78,-0.73,-0.7,-0.9,inactive
FZD2 (GeneID 2535),2.3,1.78,2.55,2.58,active
CMPK2 (GeneID 129607),-0.47,-0.55,-0.28,-0.59,inactive
TIMM9 (GeneID 26520),2.85,3.16,2.5,2.89,active
PELO (GeneID 53918),1.59,1.31,1.68,1.76,inactive
LOC390906 (retired record) (GeneID 390906),0.28,0.27,0.64,-0.06,inactive
SGK1 (GeneID 6446),-1.08,-1.14,-1.31,-0.78,inactive
NXF2 (GeneID 56001),0.26,-0.04,0.31,0.52,inactive
ITPRIPL1 (GeneID 150771),-0.22,0.42,-0.33,-0.74,inactive
CRY2 (GeneID 1408),-0.81,-1.09,-0.79,-0.55,inactive
INIP (GeneID 58493),1.44,1.33,1.74,1.24,inactive
TENT2 (GeneID 167153),-0.47,-0.81,-0.45,-0.15,inactive
MTSS1 (GeneID 9788),-0.07,-0.12,-0.07,-0.02,inactive
PCDHGA11 (GeneID 56105),-0.86,-1.1,-1.16,-0.33,inactive
DEMA1 (GeneID 339804),0.63,0.66,0.6,0.61,inactive
ABHD16A (GeneID 7920),1.41,1.78,1.26,1.2,inactive
CCDC102A (GeneID 92922),0.35,0.51,0.03,0.52,inactive
